Consider 21 molecules from US20250382355A1 (Merck Sharp & Dohme, published 2025).

Assay in all cases: ELISA
In experiment [1] the target is SARS-CoV-2 spike protein, Alpha B.1.1.7 variant (Acro Biosystems SPN-C52H6) (SARS-CoV-2).
The target in experiment [2] is T1, SARS-CoV-2 spike protein, Beta B.1.351 variant (Acro Biosystems SPN-C52Hk) (SARS-CoV-2).
T1 construct: bought

Experiment [3] concerns the target T2, SARS-CoV-2 spike protein, Gamma P.1 variant (Acro Biosystems SPN-C52Hg) (SARS-CoV-2).
T2 construct: bought

Experiment [4] addresses T3, SARS-CoV-2 spike protein, Delta B.1.617.2 variant (Acro Biosystems SPN-C52He) (SARS-CoV-2).
T3 construct: bought

In experiment [5] the target is T4, SARS-CoV-2 spike protein, Omicron BA1.1 (Acro Biosystems SPN-C52Hz) (SARS-CoV-2).
T4 construct: bought

B1: 19E10 VHH-Fc (Fc fusion)
chain: QVQLVESGGGLVQPGGSLRLSCVASGSTISINSMGWYRQAPGKAREMVATITNDGPIKYADPVKGRFTISRDNPKNTVYLQMNSLKPEDTAVYYCVADRAYWLAGEWEYWGQGTQVTVSS
With B1, the EC50 in experiment [1] was found to be 0.06 nM; in experiment [2] it was 0.05 nM; in experiment [3] it was 0.03 nM; in experiment [4], 0.04 nM; in experiment [5], 0.09 nM.

B2: 20D11 VHH-Fc (Fc fusion)
chain: QVQLVESGGGLVQAGGSLRLSCAASGRTSSIYSVGWFRQAPGKERELVAGITWSGGTTYYSDSVKGRFTISRDNAKNTVNLQMNNLKPEDTAIYYCAVDRYSMTMSARDYDYWGQGTQVTVSS
Take B2: the EC50 in experiment [1] is 0.03 nM; in experiment [2], 0.06 nM; in experiment [3], 0.56 nM; in experiment [4] it was 0.69 nM; in experiment [5], 0.53 nM.

B3: 5G11 VHH-Fc (Fc fusion)
chain: QVQLVESGGGLVQAGGSLRLSCAASGRTFSIYAVGWFRQAPGKERDFVAGITWSGGTTYYSDSVKGRFTISRDNAKNTVYLQMNNLKPEDTAIYYCAVDTYSMTLSARSYDYWGQGTQVTVSS
Regarding B3, the EC50 in experiment [1] was 0.22 nM; in experiment [2], 0.23 nM; in experiment [3], 0.21 nM; in experiment [4], 0.36 nM; in experiment [5], 0.26 nM.

B4: 14F3 VHH-Fc (Fc fusion)
chain: QVQLVESGGGLVQAGGSLRLSCAASGRTSSIYGVGWFRQAPGKERELVALITWSGGTTYYSDSVKGRFTISKDNAKNTVFLQMNNLKPEDTAIYYCAVDTYSMTMSARDYEYWGQGTQVTVSS
Turning to B4, the EC50 is 0.03 nM in experiment [1]; 0.08 nM in experiment [2]; 0.03 nM in experiment [3]; 0.03 nM in experiment [4]; 0.03 nM in experiment [5].

B5: 1A11 VHH-Fc (Fc fusion)
chain: QVQLVESGGGLVQAGGSLRLSCEVSGSIYSINSMGWYRQAPGKQRELVAGIVSDGRINYADSVKGRFTISRAKNTVYLQMNSLKPEDTAVYYCAADRAFVYAGDYDYLGQGTQVTVSS
Turning to B5, the EC50 came out at 0.04 nM in experiment [1]; 0.62 nM in experiment [2]; 0.24 nM in experiment [3]; 0.2 nM in experiment [4]; 0.64 nM in experiment [5].

B6: 19B8 VHH-Fc (Fc fusion)
chain: QVQLVESGGGLVQAGGSLRLSCAASGRTFTNYAMGWFRQAPGKEREFVAAISWSGGGTNYADSVKGRFTISRDNAKNTVYLQMNSPKPEDTAVYYCATTLGYYGSSSRLYEYWGQGTQVTVSS
As to B6, the concentration giving a half-maximal response (EC50) in experiment [1] worked out at 0.63 nM; in experiment [2], 0.26 nM; in experiment [3], 0.17 nM; in experiment [4] it was 0.08 nM; in experiment [5], 0.04 nM.

B7: 5D7 VHH-Fc (Fc fusion)
chain: QVQLVESGGGLVQAGGSLRLSCAASGRTGSRYIMGWFRQAPGKEREFVAAINWRGDSTYYADSVKGRFTIARDNAKNTAYLQMNSLKPEDTAVYYCVADRGESYYYTRSTEYTYWGQGTQVTVSS
Turning to B7, the EC50 in experiment [1] was 0.74 nM; in experiment [2], 0.22 nM; in experiment [3], 0.09 nM; in experiment [4], 0.06 nM; in experiment [5], 0.22 nM.

B8: 6A1 VHH-Fc (Fc fusion)
chain: QVQLVESGGGLVQAGGSLRLSCTASGNIFSVNVMGWHRQAPGKRRELVAALTNDGRRNYADSVKGRFTISRDNAKNTIYLEMNSLKPEDTAVYYCGTGTLESGFNSWGQGLQVTVSS
Regarding B8, the 50% effective concentration (EC50) was 0.2 nM in experiment [1]; 0.2 nM in experiment [2]; 0.18 nM in experiment [3]; 0.27 nM in experiment [4]; 0.2 nM in experiment [5].

B9: 16H7 VHH-Fc (Fc fusion)
chain: QVQLVESGGGLVQAGGSLRLSCAASGRAFSKDTMGWFRQAPGKEREFVAVISASGDSTYYADFVKGRFTISRDNAKNTEYLQMNSLKPEDTAVYHCAADGARAYYSINAHRYSWAYNYWGQGTQVTVSS
As for B9, the EC50 in experiment [1] came out at 0.06 nM; in experiment [2], 0.18 nM; in experiment [3] it was 0.04 nM; in experiment [4] it was 0.62 nM; in experiment [5], 0.03 nM.

B10: 5A6 VHH-Fc (Fc fusion)
chain: QVQLVESGGGLAQAGGSLRLSCATSGLTFSMSAMGWFRQAPGNEREFVGVINWNGGSSRYADSVRGRFTISRDNAKNTVYLQMNSLKPEDTGVYYCAADALNIGTGEVNPRLYDYWGQGTQVMVSS
Take B10: the EC50 amounted to 0.11 nM in experiment [1], 0.15 nM in experiment [2], 0.1 nM in experiment [3] and 0.08 nM in experiment [4].

B11: 1E4 VHH-Fc (Fc fusion)
chain: QVLLVESGGGLVQAGGLLRLACSASGRTFTENVMGWFRQAPGKEREFVAAINWNTGSTYYSDSRKGRFTISKDNAKNTMFLQINNLKPEDTAVYYCGGTSSSYYYIGEFIPDYWGQGTQVTVSS
Take B11: the EC50 was 0.62 nM in experiment [1], 0.03 nM in experiment [2], 0.03 nM in experiment [3] and 0.06 nM in experiment [4].

B12: 15H1 VHH-Fc (Fc fusion)
chain: QVQLVESGGGLAQAGGSLRLSCASSGLIFSGSAMGWFRQAPGKEREFVGVISWNGRTTYADSVKGRFTISRDDAVNMVWLQMNNLKPEDTAVYYCAADHLNYGSGDVNPRTYDYWGQGTQVTVSS
Take B12: the EC50 in experiment [1] was found to be 0.05 nM; in experiment [2], 0.1 nM; in experiment [3] it was 0.09 nM; in experiment [4], 0.1 nM.

B13: 11F8 VHH-Fc (Fc fusion)
chain: QVQLVESGGGLVQAGGSLRLSCAASGRTVGYYAVGWFRQAPGKERDFVAAISWSGRNTNYADSVTGRFTIFRDNAKNTVDLQMNSLKPEDTAVYYCAADYWNYGSGSEVPNNYDTWGQGTQVTVSS
With B13, the EC50 is 0.08 nM in experiment [1], 0.21 nM in experiment [2], 0.14 nM in experiment [3] and 0.11 nM in experiment [4].

B14: 11F5 VHH-Fc (Fc fusion)
chain: QVQLVESGGGAVQAGDSLRLSCTASGRTFSTYAVGWFRQAPGKERELLAAITGSGRNPYYPDSLKGRFTISREYAKLPVYLQMNSLKPEDTAVYYCAARRGAIATMPLDYDHWGQGTQVTVSS
As for B14, the EC50 is 0.05 nM in experiment [1]; 0.06 nM in experiment [2]; 0.05 nM in experiment [3]; 0.05 nM in experiment [4]; 0.04 nM in experiment [5].

B15: 7A9 VHH-Fc (Fc fusion)
chain: QVQLVESGGGLVQAGGSLRLSCSASGGTASRSAMGWFRQAPGKEREFVAGISRRNSGSTYVADSYEDSVKGRFTISRDNAKNTIYLQMNSLKPEDTAVYYCAAEPTLGWYVPRRSVEYEYWGQGTQVTVSS
Consider B15, for which the EC50 in experiment [1] turned out to be 0.13 nM; in experiment [2] it was 0.13 nM; in experiment [3], 0.12 nM; in experiment [4] it was 0.17 nM; in experiment [5], 0.19 nM.

B16: 13C8 VHH-Fc (Fc fusion)
chain: QVQLVESGGGLVQAGGSLRLSCAASGRTVNKYMTGWFRQTPGKEREFVASIDWSSTTTHYANSVKGRFTISRDKVKNTVYLQMNGLKPEDTAVYYCAAHQDSSYGYTILPIDYDSWGQGTQVTVSS
As for B16, the results for the EC50 in experiment [2], in experiment [3] and in experiment [4] were 0.24 nM, 0.23 nM and 0.18 nM, respectively.

B17: 3D4 VHH-Fc (Fc fusion)
chain: QVQLVESGGGLVQPGGSLRLSCAASGFTLDLNSIGWFRQAPGKEREGVSCISPSGSRMHYADSVKGRFTISRDNAKNTVYLQMNSLKPEDTAVYYCATGSPSYHYCSMYGLEYDSWGQGTQVTVPS
For B17, the EC50 is 0.11 nM in experiment [1], 0.09 nM in experiment [2], 0.09 nM in experiment [3] and 0.08 nM in experiment [4].

B18: 19C10 VHH-Fc (Fc fusion)
chain: QVQLVESGGGLVQPGGSLRLSCAASGFTLDLNSIGWFRQAPGKEREGVSCISPSASSTHYADSVKGRFTISRDNAKNTVYLQMNSLKPEDTAVYYCATGTPSYHYCSMYGLEYDDWGQGTQVTVSS
B18: the EC50 in experiment [1] came to 0.18 nM; in experiment [2], 0.04 nM; in experiment [3], 0.14 nM; in experiment [4], 0.1 nM.

B19: 15H7 VHH-Fc (Fc fusion)
chain: QVQLVESGGRLVQAGGSLRLSCAAPGRTFRNLTLGWFRQAPGKEREFVASTSWPDDEMTYYTDSVKGRFTISRDNAKNTVYLQMNSLKPEDTAVYYCAAASWSGRSTLSYDYDYWGQGTQVTVST
In the case of B19, the EC50 in experiment [1] turned out to be 0.05 nM; in experiment [2], 0.07 nM; in experiment [3], 0.06 nM; in experiment [4] it was 0.06 nM.

B20: 8E9 VHH-Fc (Fc fusion)
chain: QVQLVESGGGLVEAGGSLRLSCVASGSSSSINAMGWYRQAPGKQRELVASISHDGETKYANSVKGRFTISRGNAKNTIYLQMNSLKPEDTAVYYCVGDVAWVVVAGEYDYWGQGTQVTVSS
B20: the 50% effective concentration (EC50) in experiment [1] worked out at 0.06 nM; in experiment [2] it was 0.1 nM; in experiment [3] it was 0.15 nM; in experiment [4], 0.06 nM; in experiment [5], 0.6 nM.

B21: 9B2 VHH-Fc (Fc fusion)
chain: QVQLVESGGGLVQPGGSLRLSCAASGFTLDNYAIGWFRQAPGKEREGVSCISSSDGDTQYADSVKGRFTISRDNAKNTVYLQMNSLKPEDTAVYYCAVEKVYARSWFFHLCSELDFGSWGQGTQVTVSS
As for B21, the EC50 in experiment [1] is 0.06 nM; in experiment [2] it was 0.07 nM; in experiment [3], 0.05 nM; in experiment [4] it was 0.06 nM; in experiment [5] it was 0.18 nM.

The term EC50 denotes the concentration needed to bring the measured effect to its halfway point. A lower EC50 goes with an effect from little substance.
